This data set deals with Aspergillus niger, Pseudomonas aeruginosa, E. coli, Staphylococcus aureus and Candida albicans. Kind of data set: Antimicrobial effectiveness test, USP/EPA/EPB criteria. The note with it: Example 19; component concentration (50-100 mM).

Each structure is given as a SMILES string.

The source of these data is US9993529B2, “Stable formulations of a hyaluronan-degrading enzyme” (Halozyme, Inc., priority 2011, dated 2018).

Regarding `CSCC[C@H](N)C(=O)O` [methionine], the “Effect on antimicrobial effectiveness” value is listed as “Neutral”.
